According to patent US6562969B1, “Ricin inhibitors and methods for use thereof” (dated 2003):

Experiments:
ricin A chain (RTA) = ricin A chain (RTA) (Ricinus communis, UniProt P02879); test: Inhibition of RTA in the Artemia salinas ribosome in vitro protein synthesis assay; details: within the limits of solubility, pH 9
RTA [1] = target: T1, RTA (Ricinus communis, UniProt P02879); test: Crystallographic binding to RTA crystals (soaking / cocrystallization); details: for binding to RTA crystals: soaking or cocrystallization
[2] = system: Artemia salinas ribosomes; test: Effect of the inhibitor itself on in vitro protein synthesis, without RTA; details: no RTA
RTA [3] = target: T1, RTA; test: Interaction energy between RTA and ligand by molecular mechanics minimization (SYBYL, Tripos force field); details: difference pterin(3) vs pterin(1)

For `Nc1nc2ncc(CNc3ccc(C(=O)N[C@@H](CCC(=O)O)C(=O)O)cc3)nc2c(=O)[nH]1`, the “inhibition of RTA” value (ricin A chain (RTA)) was “Neither pterin-6-carboxylic acid nor folic acid acted as inhibitors”, the “inhibition of RTA” value (ricin A chain (RTA); listed as Folic acid) was “does not inhibit RTA” and the “binding to RTA crystals” value (RTA [1]) was “failed to produce stable complexes”. The “binding to RTA crystals” value (RTA [1]; listed as Folic acid) was “nor does it bind to RTA crystals”.
With `Cc1cc(O)c2c(c1)C(=O)c1cc(O)cc(O)c1C2=O` the “binding to RTA crystals” value (RTA [1]) was “failed”.
With `Nc1nc2ncc(CNc3ccc(C(=O)O)cc3)nc2c(=O)[nH]1` the “effect on protein synthesis using Artemia salinas ribosomes” value [2] was “minor inhibitory effect” and the refined occupancy in RTA crystal complex (RTA [1]; monoclinic crystals, pH 9, 2.3 Å) was 100%.
`Nc1nc(O)c2[nH]c(O)nc2n1` was tested, and the “binding to RTA crystals” value (RTA [1]) was “unsuccessful” and the “binding to RTA crystals” value (RTA [1]; listed as 2-amino-6,8-dihydrooxypurine) was “did not bind to RTA”.
With pterin-6-carboxylic acid the “inhibition of RTA” value (ricin A chain (RTA)) was “Neither pterin-6-carboxylic acid nor folic acid acted as inhibitors” and the “binding to RTA crystals” value (RTA [1]) was “failed to produce stable complexes”.
In the case of `Nc1cc(C(=O)O)ccc1O`, the “binding to RTA crystals” value (RTA [1]) is reported as “failed”.
`Nc1nc2nccnc2c(=O)[nH]1` was tested, and the “interaction energy more favorable than for pterin(1)” value (RTA [3]) was “about 8 Kcal/mole”.
In the case of rhodizonic acid, the “binding to RTA crystals” value (RTA [1]) is reported as “failed to bind to RTA crystals”.
